A mixed list of measured activities; the numbers were collected in NIAID ChemDB.

Shared fields: whole-cell or culture tests; organism: Mycobacterium tuberculosis

Inhibition is in % at the dose shown (toxicity tests: loss of growth or viability). An empty or dashed field is not shown. Neighbouring rows are from separate reports. MIC bound: limit read from a one-dose screen. ECn: concentration that inhibits the pathogen or its effect by n%. MIC50, MIC90 and the like: level of inhibition, or share of isolates inhibited.

structure	strain or isolate	read by	measure	dose	value
CC(C)(C)OC(=O)NC(Cc1ccccc1)C(=O)N/N=C/c1occc1[N+](=O)[O-]	H37Rv	resazurin	MIC		100 µg/mL
N/C(=N\NC(=O)c1ccc(Cl)cc1Cl)SCc1cccc(Cl)c1	H37Rv		MIC		>100 µg/mL
COC(=O)N1CCN(c2cc(-c3ccccc3)c3ccc(OC)nc3n2)CC1	H37Rv		EC50		>12.5 µg/mL
O=[N+]([O-])c1cn2c(n1)OC[C@@H](OCc1ccc(N3CCN(c4ccc(C(F)(F)F)cn4)CC3)nc1)C2		resazurin	MIC90		0.04 µM
COc1cc(/C=N/N=C(\N)c2ccccn2)cc(OC)c1	H37Rv		MIC		256 µg/mL
CC(C)=CCCC(C)(OC1OC(CO)C(O)C(O)C1O)C1CCC2(C)C1C(O)CC1C3(C)CCC(O)C(C)(C)C3C(OC3OC(CO)C(O)C(O)C3OC3OCC(O)C(O)C3O)CC12C		fluorescence	inhibition	200 µM	0%
CN(C)[C@@H]1C(=O)C(C(N)=O)=C(O)[C@@]2(O)C(=O)C3=C(O)c4c(O)cccc4[C@@](C)(O)[C@H]3C[C@@H]12	H37Rv	BACTEC	inhibition	12.5 µg/mL	92%
Fc1ccccc1-n1cc(CNC2c3ccccc3-c3ccccc32)nn1	H37Rv	broth dilution	MIC99		281 µM
CC1OC(OC2C(OC(=O)C34CCC(C)(C)CC3C3=CCC5C6(C)CC(O)C7OC8OC(CO)C(O)C(O)C8OC8OCC(O)C(O)C8OC(=O)CC(C)(O)CC(=O)OCC7(C)C6CCC5(C)C3(C)CC4)OCC(O)C2O)C(O)C(OC2OCC(O)C(O)C2O)C1O		fluorescence	inhibition	200 µM	0%
CSC(=S)n1nc(C)c(N=Nc2ccc(F)cc2)c1C	H37Rv	BACTEC	inhibition	128 µg/mL	100%
Cc1ccc(-n2cc(CSC3c4ccccc4-c4ccccc43)nn2)cc1C	Specimen 192	broth dilution	MIC99		>261 µM
Nc1ccc2c(-c3ccccc3)cc(N(CCO)CCO)nc2n1	H37Rv		EC50		>12.5 µg/mL
CC(=O)Nc1ccc(/C=N/NC(N)=S)cc1	H37Rv		MIC		0.3 µg/mL
COc1cc(C2C3=C(N=C4SC(C(C)=O)=C(C)N42)c2ccccc2CC3)cc(OC)c1OC	H37Rv	BACTEC	inhibition	12.5 µg/mL	0%
NC(=S)NNC(=O)c1ccc(Cl)cc1	H37Rv		MIC		>100 µg/mL
OCc1c(-c2ccccc2)nc2sc(C3CCCCC3)nn12	H37Rv	BACTEC	inhibition	6.25 µg/mL	100%
C[C@H]1NCc2cc(-c3ccc4c(=O)c(C(=O)O)cn(C5CC5)c4c3OC(F)F)ccc21	10 strains		MIC50		0.0625 µg/mL
S=C(NCCNC(=S)[S][Sn]([c]1ccccc1)([c]1ccccc1)[c]1ccccc1)[S][Sn]([c]1ccccc1)([c]1ccccc1)[c]1ccccc1	TAC-R		MIC		0.8 µg/mL
O=[N+]([O-])c1cn2c(n1)OC[C@@H](OCc1ccc(N3CCN(S(=O)(=O)c4ccc(OC(F)(F)F)cc4)CC3)cc1)C2		resazurin	MIC90		0.5 µM
NNC(=O)c1cc(C2CCCCC2)c2c(C3CCCCC3)cccc2n1	H37Ra	BACTEC	MIC		6.25 µg/mL
CCOC(=O)N1CCN(c2cc(-c3ccccc3)c3cccnc3n2)CC1	H37Rv		EC50		>12.5 µg/mL
c1ccc(-n2cc(CNC3c4ccccc4-c4ccccc43)nn2)cc1	Specimen 192	broth dilution	MIC99		>295 µM
NNC(=O)c1cc(C2C3CC4CC(C3)CC2C4)c2ccccc2n1	H37Ra	BACTEC	inhibition	6.25 µg/mL	99%
COc1c2occc2c(OC)c2c(=O)cc(/C=C/c3cccnc3)oc12	H37Rv	BACTEC	inhibition	12.5 µg/mL	16%
CC(C)CC(NC(=O)OC(C)(C)C)C(=O)N/N=C/c1sccc1[N+](=O)[O-]	H37Rv	resazurin	MIC		50 µg/mL
O=[N+]([O-])c1ccc(/C=N/N2CCNC2=S)o1	H37Rv	BACTEC	inhibition	12.5 µg/mL	52%
C[C@@H]1[C@H]2C[C@@H](C[C@H]1NCCNC1CCCCCCC1)C2(C)C			MIC		12.5 µg/mL
COc1ccc(C(=O)NNC(N)=S)cc1	H37Rv		MIC		>100 µg/mL
O=[N+]([O-])c1cn2c(n1)OC[C@@H](OCc1ccc(COc3ccc(OC(F)(F)F)cc3)nc1)C2		low oxygen	MIC90		5.9 µM
N#Cc1ccc(/C=N/N=C(\N)c2ccccn2)cc1	H37Rv		MIC		256 µg/mL
CCc1ccc(-n2cc(CNC3c4ccccc4-c4ccccc43)nn2)cc1	H37Rv	broth dilution	MIC99		136 µM
O=C(SCC1CS1)c1ccco1	H37Rv		MIC		0.8 µg/mL
CC(C)CC(NC(=O)OC(C)(C)C)C(=O)N/N=C/c1occc1[N+](=O)[O-]	H37Rv	resazurin	MIC		50 µg/mL
NNC(=O)c1ccncc1			MIC		0.4 µg/mL
COC(=O)c1ccc(O)c(NC(N)=S)c1	A67		MIC		500 µM
O=[N+]([O-])c1cn2c(n1)OC[C@@H](OCc1ccc(CNc3ccc(OC(F)(F)F)cc3)cc1)C2		resazurin	MIC90		0.06 µM
CNC(=O)c1ccc(NC(=O)Nc2ccc(C3=NCCN3)cc2)cc1NC(=O)Nc1cccc(C2=NCCN2)c1	H37Rv	BACTEC	MIC bound		≤12.5 µg/mL
COc1ccccc1/C=N/N=C(/N)c1ccccn1	H37Rv		MIC		16 µg/mL
C=CCS/C(N)=N/NC(=O)c1ccc(OC)cc1	H37Rv		MIC		>100 µg/mL
O=C1CN(/N=C/c2ccc([N+](=O)[O-])o2)C(=O)N1	H37Rv	BACTEC	inhibition	12.5 µg/mL	3%
O=C(Nc1ccc([N+](=O)[O-])cc1)c1cc(C2C3CC4CC(C3)CC2C4)c2ccccc2n1	H37Ra	BACTEC	MIC		>6.25 µg/mL
Brc1ccc(-c2cn3nc(-c4cccs4)sc3n2)cc1	H37Rv	BACTEC	inhibition	6.25 µg/mL	<90%
NC(=S)Nc1cccc([N+](=O)[O-])c1	A67		MIC		250 µM
CC(C)CC(N)C(=O)N/N=C/c1occc1[N+](=O)[O-]	H37Rv	resazurin	MIC		25 µg/mL
Cn1c(=O)c2[nH]c(=O)c(=O)[nH]c2n(C)c1=O	H37Rv	BACTEC	inhibition	12.5 µg/mL	0%
Cc1ccc(/C=N/N=C(/N)c2ccccn2)cc1	H37Rv		MIC		16 µg/mL
CCC[CH2][Sn]1([CH2]CCC)[O]C(=O)CN=C(C)c2ccccc2[O]1	H37Rv	BACTEC	MIC bound		≤12.5 µg/mL
O=c1c(O)c(-c2cc(O)c(O)c(O)c2)oc2cc(O)cc(O)c12		fluorescence	inhibition	200 µM	84.5%
Cc1ccc(CN2CCN(Cc3ccc(C)o3)C(C)C2)o1.Cl.Cl	H37Rv	BACTEC	MIC bound		>12.5 µg/mL
COc1ccc(C(=O)N/N=C(\N)SC)cc1	H37Rv		MIC		>100 µg/mL
OCc1c(-c2ccc(Br)cc2)nc2sc(-c3ccco3)nn12	H37Rv	BACTEC	inhibition	6.25 µg/mL	<90%
NNC(=O)Cc1cc(C2CCCC2)nc2ccccc12	H37Ra	BACTEC	inhibition	6.25 µg/mL	1%
NNC(=O)C1C2C=CC(C2)C1C(=O)NN	H37Rv	BACTEC	inhibition	12.5 µg/mL	19%
C=CCS/C(N)=N/NC(=O)c1cc(OC)c(OC)c(OC)c1	H37Rv		MIC		>100 µg/mL
CC(=O)Nc1nc(Cc2nnc(SCC#N)n2NC(=O)c2cccc([N+](=O)[O-])c2)cs1	H37Rv		inhibition	6.25 µg/mL	100%
NNC(=O)c1ccc2ccccc2n1	H37Ra	BACTEC	inhibition	6.25 µg/mL	0%
NNC(=O)c1ccncc1	RCMB 010126	resazurin	MIC		0.75 µg/mL
Nc1ccc2c(-c3ccccc3)cc(=S)[nH]c2n1	H37Rv		EC50		>12.5 µg/mL
O=c1cc(-c2ccccc2)oc2cc(O)c(O)c(O)c12		fluorescence	inhibition	200 µM	84.03%
COc1c(C)c2nc3ccccc3[nH]c2c2c(=O)ccnc12	H37Rv	resazurin	MIC bound		<6.25 µg/mL
NC(=O)c1cc(C2C3CC4CC(C3)CC2C4)c2ccccc2n1	H37Ra	BACTEC	inhibition	6.25 µg/mL	98%
N/C(=N/N=C/c1ccccc1)c1ccccn1	H37Rv		MIC		32 µg/mL
O=C(NC(Cc1ccccc1)C(=O)N/N=C/c1sccc1[N+](=O)[O-])OCc1ccccc1	H37Rv	resazurin	MIC		50 µg/mL
Cc1cc(O)c2c(c1)C(=O)c1cc(O)cc(O)c1C2=O		fluorescence	inhibition	200 µM	73.09%
O=C(Nc1ccc(OC(F)(F)F)cc1)c1ccc(CO[C@@H]2COc3nc([N+](=O)[O-])cn3C2)cc1		resazurin	MIC90		0.06 µM
O=c1c2cc([N+](=O)[O-])cnc2sn1-c1ccc(Br)cc1	H37Rv	resazurin	MIC bound		<6.25 µg/mL
CC1COc2c(N3CCN(C)CC3)c(F)cc3c(=O)c(C(=O)O)cn1c23	18 isolates		MIC90		2 µg/mL
CC(=O)Nc1ccc2c(-c3ccccc3)cc(N3CCN(C(C)=O)CC3)nc2n1	H37Rv		EC50		>12.5 µg/mL
Nc1nc(-c2ccccc2N=NN2CCN(N=Nc3ccccc3-c3nc(N)c4ccccc4n3)CC2)nc2ccccc12	H37Rv	BACTEC	inhibition	12.5 µg/mL	96.9%
Cc1ccc(/C=N/N=C(/N)c2ccccn2)c(C)c1	H37Rv		MIC		16 µg/mL
CC(NC(=O)OC(C)(C)C)C(=O)N/N=C/c1ccco1	H37Rv	resazurin	MIC		100 µg/mL
OCCN(CCO)c1ccc2c(-c3ccccc3)cc(N(CCO)CCO)nc2n1	H37Rv		EC50		>12.5 µg/mL
CC1C(=O)OC2C(O)C34C5CC(C(C)(C)C)C36C(OC(=O)C6O)OC4(C(=O)O5)C12O		fluorescence	inhibition	200 µM	39.9%
C=CC1=C(C)C2=NC1=CC1=NC(=CC3=C(C)C4=C(O)C(C(=O)OC)C(=C5NC(=C2)C(C)C5CCC(=O)OC)C4=N3)C(CC)=C1C	H37Rv	BACTEC	MIC bound		>12.5 µg/mL
NC(=S)N/N=C/c1ccccc1O	A67		MIC		250 µM
OCc1c(-c2ccc(Br)cc2)nc2sc(C3CCCCC3)nn12	H37Rv	BACTEC	inhibition	6.25 µg/mL	<90%
NNC(=O)CNC(=O)Nc1n[nH]c(=S)s1	H37Rv	BACTEC	MIC bound		>12.5 µg/mL
Brc1ccc(-c2nc3sc(-c4ccco4)nn3c2CN2CCCC2)cc1	H37Rv	BACTEC	inhibition	6.25 µg/mL	<90%
C=C1C(=O)O[C@H]2C[C@@]3(C)OC(=CC3=O)/C(C)=C\[C@@H](OC(=O)C3(C)OC3C)C12	H37Rv	BACTEC	inhibition	12.5 µg/mL	40%
O=[N+]([O-])c1cn2c(n1)OC[C@@H](OCc1ccnc(N3CCC(Oc4ccc(OC(F)(F)F)cc4)CC3)c1)C2		resazurin	MIC90		0.25 µM
Cc1coc2c1C(=O)C(=O)c1c-2ccc2c1CCCC2(C)C		fluorescence	inhibition	200 µM	25.63%
N/C(=N\N=C\c1ccc(Cl)c(Cl)c1)c1ccccn1	H37Rv		MIC		256 µg/mL
CCOC(=O)N1CCN(c2ccc3c(-c4ccccc4)cc(OC)nc3n2)CC1	H37Rv		inhibition	12.5 µg/mL	77%
O=[N+]([O-])c1cn2c(n1)OC[C@@H](OCc1ccc(N3CCN(c4ccc(C(F)(F)F)cn4)CC3)cc1)C2		low oxygen	MIC90		4.9 µM
O=C1C(Cl)=C(NC2C(O)OC(CO)C(O)C2O)C(=O)C(Cl)=C1NC1C(O)OC(CO)C(O)C1O	H37Rv	BACTEC	MIC bound		>12.5 µg/mL
NNC(=O)c1cc(C2CCCCC2)nc2ccccc12	H37Ra	BACTEC	MIC		>6.25 µg/mL
N=C(N)c1ccc(-c2ccc(-c3ccccc3)o2)cc1	H37Rv	BACTEC	inhibition	12.5 µg/mL	99%
NNC(=O)c1cc(C2CCCC2)c2c(C3CCCC3)cccc2n1	H37Ra	BACTEC	MIC		6.25 µg/mL